The values below come from patent publication US20150196025A1, “BIOACTIVE HEME-HALOPEROXIDASE COMPOSITIONS AND METHODS OF THEIR USE” (Exoxemis, Inc., priority 2014, published 2015).

This test has as its system S. aureus. As to the kind of experiment: Microbicidal plate assay, pEPO with amine additives, aged 0 or 5 minutes with H2O2 (Example 7). It counts as cell-based, Staphylococcus aureus. The settings on record: FIG. 7, 10 ug/mL pEPO, additive 3 mM, 2 mM NaBr.

Consider `OCCN(CCO)CCO`, for which the “microbicidal activity, Reaction 2 (aged 5 minutes with H2O2)” value (0.89 mM H2O2) was “only formulations comprising pEPO and ethanolamine or diethanolamine maintained microbicidal activity”. Further, the “microbicidal activity, Reaction 1 (aged 0 min)” value (0.89 mM H2O2, one minute, 10^8 cfu/mL) is recorded as “no microbicidal activity”.
